According to US4886667A, “External preparation composition” (priority 1985, dated 1989):

Test system: Peptostreptococcus sp. (22 isolated strains)
Assay: MIC against clinically isolated strains (cumulation percent)
Conditions: 22 isolated strains of Peptostreptococcus sp.

With Ratanhiaphenol [F] the “range of effective concentration (100% efficiency)” value was 3.13 to 12.5 µg/mL.
